“And” between values parts separate entries of the source, which are not always exact repeats. Equal values may be shown once. This is a selection; strong and weak results do not stand in their true shares. The source made the active and inactive calls. No stated cut-off is given here; in the data, active means % elongation below about 90%; inactive means the rest, inconclusive results apart.
biological target: Genome polyprotein (Poliovirus type 1 (strain Mahoney)) (UniProt P03300); assay: poliovirus RdRp elongation inhibitors, primary screen, biochemical, fluorescence polarization, total intensity (AID 588519); settings: poliovirus polymerase elongation, active compounds read low, compound at 16.7 µg/mL

Row | SMILES | % elongation
1 | Cc1cc(NC2=NC3C(C(=O)N(C)C(=O)N3C)N2C)n(-c2ccccc2)n1 (centres undefined) | inactive: 103%
2 | O=P1(Nc2nncs2)C=C(c2ccccc2)SC(c2ccccc2)=C1 | inactive: 91%
3 | O=P1(Nc2nc3ccc(Cl)cc3s2)COc2ccccc2O1 (centres undefined) | inactive: 99%
4 | O=C(OCCN1CCN(CCOCc2ccccc2)CC1)C(O)(c1ccccc1)c1ccccc1 | inactive: 97%
5 | O=C(OCC1CN(Cc2ccccc2)CCO1)C(O)(c1ccccc1)c1ccccc1 (centres undefined) | inactive: 106%
6 | CC1CCC(C(C)C)C(OP(=O)(Nc2nccs2)c2ccccc2)C1 (centres undefined) | inactive: 103%
7 | COc1cc2c(cc1NP(C)(=O)Oc1ccccc1)oc1ccccc12 (centres undefined) | inactive: 104%
8 | COC(=O)c1cc2c(s1)N=C(c1ccccc1)N(C)P2(=O)N1CCOCC1 (centres undefined) | inactive: 102%
9 | Nc1nonc1OCc1nonc1COc1nonc1N | inactive: 103%
10 | CC(=O)OC1(C#N)CN2CCC1CC2 (centres undefined) | inactive: 96%
11 | CC(=O)OC1CN2CCC1C(c1ccccc1)C2 (centres undefined) | inactive: 108%
12 | O=P(Nc1nccs1)(c1ccccc1)c1ccccc1 | inactive: 103%
13 | C/C1=C2N=C(/C=C3N=C(/C(C)=C4\[N-][C@@](C)([C@@H]5N=C1[C@](C)(CCC(=O)NC[C@@H](C)OP(=O)([O-])O[C@H]1[C@@H](O)[C@@H](n6cnc7cc(C)c(C)cc76)O[C@@H]1CO)[C@H]5CC(N)=O)[C@@](C)(CC(N)=O)[C@@H]4CCC(N)=O)[C@@](C)(CC(N)=O)[C@@H]\3CCC(N)=O)C(C)(C)[C@@H]/2CCC(N)=O.[C-]#N.[Co+3] | active: 55%
14 | Cc1ccccc1NP(C)(=O)Nc1ccccc1C | inactive: 102%
15 | CCc1ccc(OP(C)(=O)Nc2cccnc2)cc1 (centres undefined) | inactive: 109%
16 | OCCSCCO | inactive: 99%
17 | CP(=O)(Nc1ccc(Cl)cc1)Oc1ccc(F)cc1 (centres undefined) | inactive: 102%
18 | O=C(COC(=O)C(O)(c1ccccc1)c1ccccc1)N1CCCCC1 | inactive: 98%
19 | CCOP(=Nc1nc2ccccc2n2nnnc12)(OCC)OCC | inactive: 101%
20 | CN(C(=O)Cc1ccc(Cl)c(Cl)c1)[C@H]1CCCC[C@@H]1N1CCCC1 | inactive: 102% and inactive: 104%
21 | CCOP(OCC)N1CCOCC1 | inactive: 100%
22 | CP(=O)(Nc1ccccn1)Oc1ccccc1 (centres undefined) | inactive: 102%
23 | O=P1(Nc2nccs2)CC=CC1 | inactive: 100%
24 | CN(C)P1(=O)Nc2ccccc2S1 (centres undefined) | inactive: 110%
25 | O=C(OC1CN2CCC1CC2)C12CC3CC(CC(C3)C1)C2 (centres undefined) | inactive: 102%
26 | CC1=Nc2ccc(C(F)(F)F)cc2C1(C)C | inactive: 101%
27 | COP1(=S)N=C2c3ccccc3CN2c2cc(N(C)C)ccc21 (centres undefined) | inactive: 102%

Row | SMILES | % elongation
28 | Cc1cc(C)cc(OP(C)(=O)NCc2ccccc2)c1 (centres undefined) | inactive: 103%
29 | Nc1nonc1OCCOc1nonc1N | inactive: 101%
30 | O=C(O)CCC(=O)N=S(c1ccccc1)c1ccccc1.O=[N+]([O-])c1cc([N+](=O)[O-])c(O)c([N+](=O)[O-])c1 | inactive: 98%
31 | COc1ccccc1OP(C)(=O)Nc1ccccc1 (centres undefined) | inactive: 100%
32 | CCN1C(=O)N(c2ccccc2)P(=S)(OC)c2cc3c(cc21)OCCO3 (centres undefined) | inactive: 98%
33 | CP(=O)(Nc1ccc(Cl)cc1)Oc1ccccc1 (centres undefined) | inactive: 100%
34 | CP(=O)(NC(=O)Nc1ccccc1)Oc1ccccc1 (centres undefined) | inactive: 103%
35 | COP1(=S)c2c(C)nn(-c3ccccc3)c2N=C(c2ccccc2)N1C1CC1 (centres undefined) | inactive: 101%
36 | CCn1cccc/c1=N\P1(=S)OCCO1 | inactive: 104%
37 | Cc1cccc(NP(C)(=O)Oc2ccccc2)c1 (centres undefined) | inactive: 97%
38 | CCOC(=O)c1ccc(NP(C)(=O)Oc2ccc(OC)cc2)cc1 (centres undefined) | inactive: 103%
39 | Nc1nonc1-c1no[n+]([O-])c1-c1nonc1N | inactive: 94%
40 | O=P1(Nc2ccccn2)COc2ccccc2OC1 | inactive: 104%
41 | Cc1nn(CCC#N)c2c1P(=O)(Nc1ccccc1Cl)N(C)C(c1ccc(F)cc1)=N2 (centres undefined) | inactive: 102%
42 | CP(=O)(N1CCOCC1)N1CCOCC1 | inactive: 106%
43 | Cc1nn(-c2ccccc2)c2c1P(=O)(N1CCOCC1)N(C)C(c1ccccc1)=N2 (centres undefined) | inactive: 104%
44 | Cc1ccc(C(=O)OC2CN3CCC2CC3)cc1 (centres undefined) | inactive: 109%
45 | CC1(C)COP(=S)(N(C2=NCCC2)c2ccccc2)OC1 | inactive: 99%
46 | Cc1cc(C)cc(OP(C)(=O)Nc2ccc(OC(C)C)cc2)c1 (centres undefined) | inactive: 101%
47 | CCSP(=O)(c1ccccc1)c1ccccc1 | inactive: 99%
48 | NC(=O)COC(=O)C1(O)c2ccccc2-c2ccccc21 | inactive: 102%
49 | CCOP1(=S)c2c(C)nn(CCC#N)c2N=C(c2ccc(F)cc2)N1C (centres undefined) | inactive: 100%
50 | NC(=O)Nc1ccc([As](=O)(O)O)cc1 | inactive: 100%
51 | O=P1(Nc2nc3ccc(Cl)cc3s2)COc2ccccc2OC1 | inactive: 101%
52 | Cc1cccc(OCC(=O)OC2CN3CCC2CC3)c1 (centres undefined) | inactive: 101%
53 | COc1cc(-n2cnnn2)ccc1-n1cnnn1 | inactive: 105%
54 | O=C(OC1CN2CCC1CC2)c1ccc(Cl)cc1 (centres undefined) | inactive: 103%

From PubChem BioAssay AID588519 (ICCB-Longwood Screening Facility, Harvard Medical School, 2011)
